Where “and” joins values, the source holds several entries; their conditions need not be identical. Equal values may be shown once.
Legend:
[1] = molecular target: J08 A.92RW020V1V2/N156QN160Q (HIV-1)
[2] = molecular target: T1, J08 B.HXB2/BALV1V2N156QN160Q (HIV-1); assay: ELISA
T1 chain: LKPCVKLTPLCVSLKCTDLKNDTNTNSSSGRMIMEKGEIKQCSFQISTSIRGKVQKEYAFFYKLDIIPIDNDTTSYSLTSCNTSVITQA

[3] = molecular target: T2, J08 A.92RW020V1V2/N156QN160Q (HIV-1); assay: ELISA
T2 construct: also called J08 A.92RW020VV1V2/N156QN160Q

B.63521 gp140C = assay: ELISA, OD405
B.62357 140C [4] = molecular target: T3, B.62357 140C; assay: ELISA, OD405
T3 construct: also called B.62357 gp140C

B.040 gp140C = assay: ELISA, OD405
Env of SHIV-1157ipd3N4 [5] = molecular target: Env of SHIV-1157ipd3N4 (SHIV); assay: cell-based or functional assay
Env of SHIV-1157ipEL-p [6] = molecular target: Env of SHIV-1157ipEL-p (SHIV); assay: cell-based or functional assay
Env of SHIV-SF162P4 [7] = molecular target: Env of SHIV-SF162P4 (SHIV); assay: cell-based or functional assay
Env of SHIV-1157ipd3N4 [8] = molecular target: Env of SHIV-1157ipd3N4 (SHIV); assay: cell-based or functional assay; remark: listed apart in the source
Env of SHIV-1157ipEL-p [9] = molecular target: Env of SHIV-1157ipEL-p (SHIV); assay: cell-based or functional assay; remark: listed apart in the source
Env of SHIV-SF162P4 [10] = molecular target: Env of SHIV-SF162P4 (SHIV); assay: cell-based or functional assay; remark: listed apart in the source
B.62357 140C [11] = molecular target: T4, B.62357 140C; assay: ELISA OD405nm, bar chart, antibody concentration not given
T4 construct: also called B.62357 gp140C

B1: CH58 (antibody, V domains shown)
VH: EVQLVQSGAEVKKPGESLKISCKGSGYRFTSYWIVWVRQMPGKGLEWMGIIYPGDFDTKYSPSFQGQVTISADKSISTAYLQWSSLKASDTAMYYCARLGGRYYHDSSGYYYLDYWGQGTLVTVSS
VL: NFMLTQPHSVSESPGKTVTISCTRSSGSVASDYVQWYQQRPGSAPTTVVYEDNQRPSGVPDRFSGSIDSSSNSASLTISGLKTEDEADYYCQSYDNSSWVFGGGTKLTVL
[1]
  Kd: 413 nM and 450 nM
[2]
  EC50: > 667 nM
[3]
  EC50: 3 nM
B.63521 gp140C
  binding result: no binding (tested: 10 ug/ml)
B.62357 140C [4]
  binding result: no binding (tested: 10 ug/ml)
B.040 gp140C
  binding result: no binding (tested: 10 ug/ml)
Env of SHIV-1157ipd3N4 [5]
  EC50, neutralization of SHIVC.1157ipd3N4 (tier 2): > 50 µg/mL
Env of SHIV-1157ipEL-p [6]
  EC50, neutralization of SHIV C.1157ipEL-p (tier 1A): 37.6 µg/mL
Env of SHIV-SF162P4 [7]
  EC50, neutralization of SHIV B.SF162P4 (tier 2): > 50 µg/mL
Env of SHIV-1157ipd3N4 [8]
  EC50, neutralization of SHIV-1157ipd3N4: > 50 µg/mL
Env of SHIV-1157ipEL-p [9]
  EC50, neutralization of SHIV-1157ipEL-p: 37.6 µg/mL
Env of SHIV-SF162P4 [10]
  EC50, neutralization of SHIV-SF162P4: > 50 µg/mL
B.62357 140C [11]
  binding result: no binding (tested: not given)
